A mixed list of measured activities; the numbers were collected in NIAID ChemDB.

Common to all: whole-cell or culture tests; organism: Mycobacterium smegmatis

Conditions beyond the fields shown may differ between rows. ECn is the concentration giving n% inhibition of infection, replication or growth. MIC50, MIC90 and the like: level of inhibition, or share of isolates inhibited. Blank or dashed fields: not listed here. Inhibition is in % at the dose shown (toxicity tests: loss of growth or viability).

smiles | tested at | read-out | strain or isolate | value
CC(C)NCCN(C)C(C)C | - | EC50 | ATCC 607 | >1000 µg/mL
CCS(=O)CCCCCCCCCCCCC#CC(=O)O | - | MIC99 | mc2155 | >200 µM
CCc1cc(C(N)=S)ccn1 | - | MIC | MC^2 845 | >80 µg/mL
CCCCN(CCCC)CCN(C)C | 250 µg/mL | inhibition | ATCC 607 | 0%
CCC1CN(c2cc3c(cc2F)c(=O)c(C(=O)O)cn3C2CC2)CCN1 | - | MIC99 | D95Y mutant | 2 µg/mL
CCCCCN(CCCCC)CCN(CCCCC)CCCCC | - | EC50 | ATCC 607 | <8 µg/mL
COc1c(N2C[C@@H]3CCCN[C@@H]3C2)c(F)cc2c(=O)n(N)c(=O)n(C3CC3)c12 | - | MIC99 | A91V mutant | 50 µg/mL
CCCCCCCCCCCCCCSCC#CC(=O)O | - | MIC99 | mc2651 | 167.5 µM
CC(C)C(C)NCCNC(C)C(C)C | 250 µg/mL | inhibition | ATCC 607 | 0%
CCCCCCCCCCCCCCCCC#CC(=O)O | - | MIC99 | mc22389 | 63.7 µM
COc1c(N2CC[C@H](N)C2)c(F)cc2c(=O)n(N)c(=O)n(C3CC3)c12 | - | MIC99 | G89C mutant | 6.25 µg/mL
CCCCCCSCCCCCCCCCCC#CC(=O)O | - | MIC99 | mc22389 | >200 µM
CCC1CN(c2c(F)cc3c(=O)c(C(=O)O)cn(C4CC4)c3c2OC)CCN1 | - | MIC99 | WT | 0.031 µg/mL
CC(C)NC(C)C(C)NC(C)C | - | EC50 | ATCC 607 | >1000 µg/mL
CCCCCCCCCCCCSCC#CC(=O)O | - | MIC99 | mc2155 | 43.9 µM

For reference, 2 entries again:

| smiles | tested at | read-out | strain or isolate | value |
|---|---|---|---|---|
| CCS(=O)CCCCCCCCCCCCC#CC(=O)O | - | MIC99 | mc2155 | >200 µM |
| COc1c(N2CC[C@H](N)C2)c(F)cc2c(=O)n(N)c(=O)n(C3CC3)c12 | - | MIC99 | G89C mutant | 6.25 µg/mL |